{
  "source": "paper PMC6689899",
  "about": "“An essential bifunctional enzyme in Mycobacterium tuberculosis for itaconate dissimilation and leucine catabolism” (Proceedings of the National Academy of Sciences of the …, 2019)",
  "assay_in_all_cases": "purified protein",
  "key": {"[1]": {"test_system": "CC(C)(COP(=O)(O)OP(=O)(O)OC[C@H]1O[C@@H](n2cnc3c(N)ncnc32)[C@H](O)[C@@H]1OP(=O)(O)O)[C@@H](O)C(=O)NCCC(=O)NCCSC(=O)C[C@](C)(O)CC(=O)O"}, "[2]": {"test_system": "CCC(=O)SCCNC(=O)CCNC(=O)[C@H](O)C(C)(C)COP(=O)(O)OP(=O)(O)OC[C@H]1O[C@@H](n2cnc3c(N)ncnc32)[C@H](O)[C@@H]1OP(=O)(O)O"}, "[3]": {"test_system": "CC(=O)SCCNC(=O)CCNC(=O)[C@H](O)C(C)(C)COP(=O)(O)OP(=O)(O)OC[C@H]1O[C@@H](n2cnc3c(N)ncnc32)[C@H](O)[C@@H]1OP(=O)(O)O"}, "[4]": {"test_system": "CC(C)(COP(=O)(O)OP(=O)(O)OC[C@H]1O[C@@H](n2cnc3c(N)ncnc32)[C@H](O)[C@@H]1OP(=O)(O)O)[C@@H](O)C(=O)NCCC(=O)NCCSC(=O)C[C@](C)(O)C(=O)O"}},
  "data": [
    {"substance": "Rv2498c (Mycobacterium tuberculosis H37Rv)", "values": [
      {"measurement": "Km", "setting": "[1]", "result": "90 ± 22", "unit": "µM"},
      {"measurement": "kcat/Km", "setting": "[1]", "result": 390000, "unit": "M⁻¹ s⁻¹"},
      {"measurement": "Km", "setting": "[2]", "result": "729 ± 163", "unit": "µM"},
      {"measurement": "kcat/Km", "setting": "[2]", "result": 110, "unit": "M⁻¹ s⁻¹"},
      {"measurement": "Km", "setting": "[3]", "result": "2,124 ± 200 µM"},
      {"measurement": "kcat/Km", "setting": "[3]", "result": 69, "unit": "M⁻¹ s⁻¹"},
      {"measurement": "Km", "setting": "[4]", "result": "75 ± 19", "unit": "µM"},
      {"measurement": "kcat/Km", "setting": "[4]", "result": 230000, "unit": "M⁻¹ s⁻¹"}
    ]}
  ]
}
